Compound potency records, mixed from different reports. Data source: NIAID ChemDB in PubChem.

Shared fields: enzyme or target tests

ICn is the concentration giving n% inhibition. a–b is a range or a potency band. Inhibition is in % at the dose shown (toxicity tests: loss of growth or viability). Blank or dashed fields: not listed here. Rows are shuffled and stem from different studies.

compound | protein | tested at | measure | organism | value
CC(C)N(C(=O)C1C2CC3CC(C2)CC1C3)c1cc(-c2ccccc2)sc1C(=O)O | NS3 ATPase | - | IC50 | Hepatitis C virus | >20 µM
COc1nc(Nc2ccc3cn[nH]c3c2)nc(-n2ccnc2)n1 | DNA polymerase | 0.01 µg/mL | inhibition | Hepatitis B virus | 11%
CCCCCC(=O)N(CC)c1cc(-c2ccccc2)sc1C(=O)O | NS3 ATPase | - | IC50 | Hepatitis C virus | <5 µM
CC(NC(=O)Nc1cscc1-c1nc(C(=O)O)c(O)c(=O)[nH]1)c1nc2ccccc2[nH]1 | HCV polymerase | - | IC50 | Hepatitis C virus | <25 µM
O=C(O)c1sc(-c2ccccc2)cc1NC(=O)N1CCC(n2c(=O)[nH]c3ccccc32)CC1 | NS3 ATPase | - | IC50 | Hepatitis C virus | >20 µM
CC[C@@H](C=O)NC(=O)[C@H](CC(C)C)NC(=O)[C@@H](NC(=O)[C@@H](NC(=O)c1cc[n+]([O-])cc1)C(C)C)C(C)C | NS3 protease | - | Ki | Hepatitis C virus | 1–100 µM
COc1nc(Nc2ccc3[nH]ncc3c2)nc(N2CCN(C(=O)c3cccnc3)CC2)n1 | DNA polymerase | 1 µg/mL | inhibition | Hepatitis B virus | 58%
O=C(NC(C(=O)O)C1CCCCC1)c1ccc2c(c1)nc(-c1ccc3nc(-c4ccccc4)cnc3c1)n2C1CCCCC1 | NS5B polymerase | 33 µM | inhibition | Hepatitis C virus | 95.99%
O=C(NCCn1cccn1)Nc1cscc1-c1nc(C(=O)O)c(O)c(=O)[nH]1 | HCV polymerase | - | IC50 | Hepatitis C virus | <25 µM
O=C(O)CCC(NC(=O)c1ccc2c(c1)nc(-c1ccc3nc(-c4ccccc4)ccc3c1)n2C1CCCCC1)C(=O)O | NS5B polymerase | 100 µM | inhibition | Hepatitis C virus | 95.62%
COc1nc(Nc2ccc3[nH]ncc3c2)nc(NN2CCOCC2)n1 | Nonstructural protein 5B | 1 µg/mL | inhibition | Hepatitis C virus | 33%
O=C(O)c1ccc2c(c1)nc(-c1ccc3nc(-c4cn(-c5cccnc5Cl)c(=O)[nH]c4=O)ccc3c1)n2C1CCCCC1 | NS5B polymerase | 100 µM | inhibition | Hepatitis C virus | 96.38%
CNC(=O)c1c(-c2ccc(F)cc2)oc2cc(N(C(C)C)S(C)(=O)=O)c(OC(C)C)cc12 | Nonstructural protein 5B | - | IC50 | Hepatitis C virus | ≤0.5 µM
O=C(/C=C/c1ccccc1)Nc1ccsc1-c1nc(C(=O)O)c(O)c(=O)[nH]1 | HCV polymerase | - | IC50 | Hepatitis C virus | <25 µM
O=C(O)c1cc2nc(-c3ccc(OCc4ccccc4)cc3)c(CC3CCCCC3)c(=O)n2[nH]1 | RNA-dependent RNA polymerase | - | IC50 | Hepatitis C virus | <1 µM
CNC1N=C(OC)N=C(Nc2ccc3cn[nH]c3c2)N1CN | DNA polymerase | 1 µg/mL | inhibition | Hepatitis B virus | 55%
CC[C@@H](C=O)NC(=O)[C@@H]1C[C@@H](OCc2ccccc2)CN1C(=O)[C@@H](NC(=O)[C@@H](NC(=O)Nc1cc(C(=O)O)cc(C(=O)O)c1)C(C)C)C(C)C | NS3 protease | - | Ki | Hepatitis C virus | 1–100 µM
COC(=O)[C@H](Cc1c[nH]c2ccccc12)NC(=O)c1cc2nc(-c3ccco3)c(C3CCCCC3)c(=O)n2[nH]1 | RNA-dependent RNA polymerase | - | IC50 | Hepatitis C virus | <1 µM
Nc1c(Cl)cc(-c2ccc3cc(-c4nc5cc(C(=O)O)ccc5n4C4CCCCC4)ccc3n2)cc1Cl | NS5B polymerase | 100 µM | inhibition | Hepatitis C virus | 101%
CC(=O)Nc1ccc(COC(=O)Nc2ccsc2-c2nc(C(=O)O)c(O)c(=O)[nH]2)cc1 | HCV polymerase | - | IC50 | Hepatitis C virus | <25 µM
CC(C)C(=O)N(Cc1ccc(C(C)(C)C)cc1)c1cc(-c2ccccc2)sc1C(=O)O | NS3 ATPase | - | IC50 | Hepatitis C virus | 5–20 µM
CNC(=O)CN1CCN(c2nc(Nc3ccc4cn[nH]c4c3)nc(OC)n2)CC1 | Nonstructural protein 5B | 1 µg/mL | inhibition | Hepatitis C virus | 11%
CC[C@@H](C=O)NC(=O)[C@@H]1C[C@@H](OCc2cc(F)cc3c2OCOC3)CN1C(=O)[C@@H](NC(=O)[C@@H](NC(=O)c1cnccn1)C(C)C)C(C)C | NS3 protease | - | Ki | Hepatitis C virus | 1–100 µM
COc1nc(NCCCn2ccnc2)nc(Nc2ccc3[nH]ncc3c2)n1 | DNA polymerase | - | IC50 | Hepatitis B virus | 0.1–1 µg/mL
O=C(NC(Cc1c[nH]c2ccccc12)C(=O)O)c1cnn2c(C3CCCCC3)c(-c3ccoc3)cnc12 | RNA-dependent RNA polymerase | - | IC50 | Hepatitis C virus | <1 µM
Cc1ccc(S(=O)(=O)Nc2cc(-c3ccccc3)sc2C(=O)NC2CCC2)cc1 | NS3 ATPase | - | IC50 | Hepatitis C virus | 5–20 µM
COc1nc(Nc2ccc3cn[nH]c3c2)nc(N2CCC(O)CC2)n1 | DNA polymerase | 0.1 µg/mL | inhibition | Hepatitis B virus | 37%
Oc1cccc(-c2cnc3c(-c4nn[nH]n4)cnn3c2C2CCCCC2)c1 | RNA-dependent RNA polymerase | - | IC50 | Hepatitis C virus | >10 µM
O=C(O)c1ccc2c(c1)nc(-c1ccc3nc(-c4ccccn4)ccc3c1)n2C1CCCCC1 | NS5B polymerase | 33 µM | inhibition | Hepatitis C virus | 93.85%
O=C(N[C@@H](Cc1c[nH]c2ccc(O)cc12)C(=O)O)c1cnn2c(C3CCCCC3)c(-c3ccc(F)cc3)cnc12 | RNA-dependent RNA polymerase | - | IC50 | Hepatitis C virus | <1 µM
CCN(c1cc2oc(-c3ccc(F)cc3)c(C(=O)NC)c2cc1F)S(C)(=O)=O | Nonstructural protein 5B | - | IC50 | Hepatitis C virus | ≤0.5 µM
NCCCCC(NC(=O)c1ccc2c(c1)nc(-c1ccc3nc(-c4ccccc4)ccc3c1)n2C1CCCCC1)C(=O)O | NS5B polymerase | 100 µM | inhibition | Hepatitis C virus | 80.22%
CNC(=O)c1c(-c2ccc(F)cc2)oc2cc(N(C)S(C)(=O)=O)c(OCc3cccc(C(=O)O)c3)cc12 | Nonstructural protein 5B | - | IC50 | Hepatitis C virus | ≤0.5 µM
COc1ccc(-c2ccc(C#N)cc2)c(-c2ccc3cc(-c4nc5cc(C(=O)O)ccc5n4C4CCCCC4)ccc3n2)c1 | NS5B polymerase | 33 µM | inhibition | Hepatitis C virus | 102%
O=C(NS(=O)(=O)Cc1ccccc1)c1cc2nc(-c3ccco3)c(C3CCCCC3)c(=O)n2[nH]1 | RNA-dependent RNA polymerase | - | IC50 | Hepatitis C virus | <1 µM
CNC(=O)c1c(-c2ccc(F)cc2)oc2cc(N(Cc3ccc(C(=O)O)cc3)S(C)(=O)=O)c(OC(C)C)cc12 | Nonstructural protein 5B | - | IC50 | Hepatitis C virus | ≤0.5 µM
COc1ccc(COc2cccc(-c3nc(C(=O)O)c(O)c(=O)[nH]3)c2)cc1 | HCV polymerase | - | IC50 | Hepatitis C virus | <100 µM
CCOC(=O)c1cc2nc(-c3ccccc3)cc(-c3ccccc3Cl)n2n1 | RNA-dependent RNA polymerase | - | IC50 | Hepatitis C virus | >10 µM
O=C(Nc1scnc1-c1nc(C(=O)O)c(O)c(=O)[nH]1)c1ccccc1 | HCV polymerase | - | IC50 | Hepatitis C virus | <100 µM
CC[C@@H](C=O)NC(=O)[C@@H]1C[C@@H](OCc2ccccc2)CN1C(=O)[C@@H](NC(=O)[C@H](Cc1cccs1)NC(=O)c1cnccn1)C(C)C | NS3 protease | - | Ki | Hepatitis C virus | 1–100 µM
Nc1ccc(-c2ccc(Cl)cc2)c(-c2ccc3cc(-c4nc5cc(C(=O)O)ccc5n4C4CCCCC4)ccc3n2)c1 | NS5B polymerase | 33 µM | inhibition | Hepatitis C virus | 101%
O=C(Nc1ccsc1-c1nc(C(=O)O)c(O)c(=O)[nH]1)OC1Cc2ccccc2C1 | HCV polymerase | - | IC50 | Hepatitis C virus | <25 µM

5 of the rows above, restated:

compound | protein | tested at | measure | organism | value
NCCCCC(NC(=O)c1ccc2c(c1)nc(-c1ccc3nc(-c4ccccc4)ccc3c1)n2C1CCCCC1)C(=O)O | NS5B polymerase | 100 µM | inhibition | Hepatitis C virus | 80.22%
CNC1N=C(OC)N=C(Nc2ccc3cn[nH]c3c2)N1CN | DNA polymerase | 1 µg/mL | inhibition | Hepatitis B virus | 55%
COc1nc(Nc2ccc3cn[nH]c3c2)nc(N2CCC(O)CC2)n1 | DNA polymerase | 0.1 µg/mL | inhibition | Hepatitis B virus | 37%
O=C(NCCn1cccn1)Nc1cscc1-c1nc(C(=O)O)c(O)c(=O)[nH]1 | HCV polymerase | - | IC50 | Hepatitis C virus | <25 µM
O=C(/C=C/c1ccccc1)Nc1ccsc1-c1nc(C(=O)O)c(O)c(=O)[nH]1 | HCV polymerase | - | IC50 | Hepatitis C virus | <25 µM